Experimental data published in patent US20030176331A1.

B1: scfvMEL-CFR2025 fusion construct (protein)
chain: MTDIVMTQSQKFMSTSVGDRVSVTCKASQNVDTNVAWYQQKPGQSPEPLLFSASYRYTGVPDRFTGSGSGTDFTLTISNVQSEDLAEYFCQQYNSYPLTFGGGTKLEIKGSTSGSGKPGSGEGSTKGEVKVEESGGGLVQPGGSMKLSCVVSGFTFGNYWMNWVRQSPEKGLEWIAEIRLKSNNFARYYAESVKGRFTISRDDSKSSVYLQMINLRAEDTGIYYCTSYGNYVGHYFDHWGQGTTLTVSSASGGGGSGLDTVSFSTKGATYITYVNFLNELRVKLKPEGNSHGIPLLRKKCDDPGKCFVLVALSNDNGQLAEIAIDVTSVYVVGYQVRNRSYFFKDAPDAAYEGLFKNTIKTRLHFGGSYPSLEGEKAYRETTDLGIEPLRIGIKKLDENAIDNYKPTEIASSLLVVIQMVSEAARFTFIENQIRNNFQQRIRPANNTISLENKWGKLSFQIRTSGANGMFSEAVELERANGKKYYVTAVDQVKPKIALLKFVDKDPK

Columns and labels:
[1] = target: high molecular weight glycoprotein gp240 on melanoma cells (human) (UniProt Q6UVK1); test: cell-based or functional assay
[2] = target: high molecular weight glycoprotein gp240 on melanoma cells (human), Q6UVK1; test: cell-based or functional assay

Molecule | I.C.50, 72 h growth inhibition of antigen-positive A375M melanoma cells [1] | I.C.50, 72 h growth inhibition of antigen-positive A375M melanoma cells [2]
scfvMEL/rGel fusion construct | 100 nM | –
B1 | – | 100 nM
